# Measurements: publication PMC3476531, “Synergy of Peptide and Sugar in O-GlcNAcase Substrate Recognition” (Chemistry & Biology, 2012)
# Molecular target: CpOGA (Clostridium perfringens, UniProt Q0TR53)
# Assay: CpOGA glycopeptide hydrolysis, substrate competition assay with 4MU-GlcNAc reporter
# Conditions: read-out: Michaelis constant (KM) of glycopeptide substrate for CpOGA; competition with 4MU-GlcNAc reporter substrate; 37°C, 50 mM citrate-phosphate buffer pH 7.4, 0.1 mg/ml BSA; triplicate; ± error of curve-fit
smiles,measurement,value
CC(=O)N[C@H]1[C@H](OC[C@H](NC(=O)[C@H](Cc2c[nH]cn2)NC(=O)[C@H](C)NC(=O)[C@@H](NC(C)=O)C(C)C)C(=O)NCC(=O)N[C@@H](C)C(N)=O)O[C@H](CO)[C@@H](O)[C@@H]1O,Km,40 µM
